Measured values taken from patent US20110052564.

How the values were obtained:
crossbeta E2 form SEC-E2 = crossbeta E2 form SEC-E2 (UniProt P21530)
crossbeta E2 form cE2-B = crossbeta E2 form cE2-B (UniProt P21530)

tissue type plasminogen activator (tPA; Actilyse, Boehringer-Ingelheim)
tPA/plasminogen activating potency at 50 ug/ml E2 (crossbeta E2 form SEC-E2): with SEC-E2 only one third of this activity remains
tPA/plasminogen activating potency at 50 ug/ml E2 (crossbeta E2 form cE2-B): an increase in tPA/plasminogen activating potency is observed for cE2-B
